Assay results from publication PMC11139207.

Target: Lsr2 (Mycobacterium smegmatis MC2 155) (UniProt A0R576)
Assay: EMSA
Conditions: room temperature, 20 min, binding buffer not given (as described previously), protein storage buffer 20 mM Tris-HCl, 100 mM NaCl, 1 mM DTT, 10% glycerol, recombinant protein, residues 1-114, protein details: His-GST (pGEX-6T-1), probe letters rebuilt from the primers and the genome

| Sequence | binding result |
| --- | --- |
| GAAATAGCGTGTGCCCAAGAGGGTTCCGCCGCCGATCACCTGCGCGCTGCGCCGCAACAACCGGTTACGACCCGACACCACCGCACGCAACCGCTCCCCCGGCAACACCGGAAGATCCACAAACCCCGCGCCCGGCAACTGCGCACACACCGCGTCATAAATCGCGTCATCACCCAGATTGCCCCGACCATGCCACCCCAGATAACCCACCAAGGGACGCACAGTGGCGGCGGTCGCACGATTGTCGGTTGCCCGGTTCAGGCTCATGAAAACTCTCTGGCGTTCGGCTTGAATTGTTCATCGAAAAGGTGCGCGCCGTCCGTCGCACTCGCAGATGGGCGGGCCGATGAAGGATCCAACGGTACCCCGCCACGTGGCCTGCGGCCATCTTCGGTCATACTGGTGGTATCCGGTCGGCCCACGAAAAGACGCGTTTGTCGCGTCGATGCTAGCCTCCCGGAAAACAACAGGTGTGGTGGGCGGCCCCGATCCGGGTCGCCCCGATTGCGGCGCACCGATTCGACGACGTCGAAATTTCACATGCTCGAGGAGTTTTAGCAA (double strand) [S3 (MSMEG_4737p)] | binds |
| GGCGGCGGGAAGTCGACCGCGACGAACACGGCCCGCGGTGGGAGTTCGAACGCAGGCAACCGATTTCCGACGATGATGATGAGATGGTCGTCACAGGACTGCCGGCTGACCGATCGAAGCGTGTCCTGAAGCAGCGCTTCGACGCGACCGTAATCCGCGGAGTTCCGCGGATGTCGCAAGGTGGTGATGAAGGCCAGCATCGCGGGGAACTCTACCGAGTTCAGAGCGTTATCACGAATCGGTGAACGCCCAAATAATCAGCCGGACAGCACATTACGTGATCTTGGAATCGCGGCAAACCACAGTGGGTTTGCTCCGCGTCACCGA (double strand) [S2 (MSMEG_4735p)] | binds |
